{
  "source": "paper PMC7717600",
  "about": "“Novel [(N-alkyl-3-indolylmethylene)hydrazono]oxindoles arrest cell cycle and induce cell apoptosis by inhibiting CDK2 and Bcl-2: synthesis, biological evaluation and in silico studies” (Journal of Enzyme Inhibition and Medicinal Chemistry, 2020)",
  "data": [
    {"test_system": "panel of 59 human cancer cell lines", "assay": "NCI screening, panel and subpanel summaries", "conditions": "cell lines with GI % higher than 10% at 10 μM", "values": [
      {"smiles": "C=CCn1cc(C=NN=C2C(=O)Nc3ccc(Cl)cc32)c2ccccc21", "note": "[Compound 10d]", "Sensitive cell lines no.": 12},
      {"smiles": "CCCn1cc(/C=N/N=C2\\C(=O)Nc3ccc(OC(F)(F)F)cc32)c2ccccc21", "note": "[Compound 8b]", "Sensitive cell lines no.": 26},
      {"smiles": "C=CCn1cc(C=NN=C2C(=O)Nc3c(F)cccc32)c2ccccc21", "note": "[Compound 10c]", "Sensitive cell lines no.": 20},
      {"smiles": "CC(C)n1cc(C=NN=C2C(=O)Nc3ccccc32)c2ccccc21", "note": "[Compound 9]", "Sensitive cell lines no.": 12},
      {"smiles": "C=CCn1cc(C=NN=C2C(=O)Nc3ccccc32)c2ccccc21", "note": "[Compound 10a]", "Sensitive cell lines no.": 27},
      {"smiles": "CCCn1cc(C=NN=C2C(=O)Nc3ccc([N+](=O)[O-])cc32)c2ccccc21", "note": "[Compound 8c]", "Sensitive cell lines no.": 14}
    ]}
  ]
}
